Measured values: US20040102431A1, “Substituted amino-aza-cycloalkanes useful against malaria” (priority 2000, published 2004)

Amino acid sequences for entries named in this document (tags omitted). Residues count along the entry.
UniProt P46925, 125-453 limits assumed: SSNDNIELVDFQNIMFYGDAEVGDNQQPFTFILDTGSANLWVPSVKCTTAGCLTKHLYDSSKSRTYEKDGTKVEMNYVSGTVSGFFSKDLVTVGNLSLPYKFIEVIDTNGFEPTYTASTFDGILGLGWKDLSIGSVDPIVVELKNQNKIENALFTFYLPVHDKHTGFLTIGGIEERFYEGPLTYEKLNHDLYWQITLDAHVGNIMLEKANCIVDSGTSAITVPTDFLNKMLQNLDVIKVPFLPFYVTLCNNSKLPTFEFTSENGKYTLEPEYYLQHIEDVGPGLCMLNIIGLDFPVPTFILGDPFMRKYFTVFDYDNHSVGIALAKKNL

Biological target: plasmepsin II (Plasmodium falciparum, UniProt P46925)
Assay: fluorescence resonance energy transfer (FRET) assay for plasmepsin II
Format: biochemical
Details: read-out: IC50 (nM) on plasmepsin II, Additional Examples table, pH 5, 37° C., 40 min, substrate 1 μM

Q: How did the IC50 turn out when CCCCCc1ccc(C(=O)N(Cc2ccc(-c3ccccc3)cc2)C2CCN(CCc3ccccc3)CC2)cc1 was run?
A: 433 nM
